Values of other authors in patent USRE39240E1 (priority 1993, dated 2006).

By UniProt entry, the sequences of proteins in these tests, tags left out.
UniProt Q00975, whole entry, looked up: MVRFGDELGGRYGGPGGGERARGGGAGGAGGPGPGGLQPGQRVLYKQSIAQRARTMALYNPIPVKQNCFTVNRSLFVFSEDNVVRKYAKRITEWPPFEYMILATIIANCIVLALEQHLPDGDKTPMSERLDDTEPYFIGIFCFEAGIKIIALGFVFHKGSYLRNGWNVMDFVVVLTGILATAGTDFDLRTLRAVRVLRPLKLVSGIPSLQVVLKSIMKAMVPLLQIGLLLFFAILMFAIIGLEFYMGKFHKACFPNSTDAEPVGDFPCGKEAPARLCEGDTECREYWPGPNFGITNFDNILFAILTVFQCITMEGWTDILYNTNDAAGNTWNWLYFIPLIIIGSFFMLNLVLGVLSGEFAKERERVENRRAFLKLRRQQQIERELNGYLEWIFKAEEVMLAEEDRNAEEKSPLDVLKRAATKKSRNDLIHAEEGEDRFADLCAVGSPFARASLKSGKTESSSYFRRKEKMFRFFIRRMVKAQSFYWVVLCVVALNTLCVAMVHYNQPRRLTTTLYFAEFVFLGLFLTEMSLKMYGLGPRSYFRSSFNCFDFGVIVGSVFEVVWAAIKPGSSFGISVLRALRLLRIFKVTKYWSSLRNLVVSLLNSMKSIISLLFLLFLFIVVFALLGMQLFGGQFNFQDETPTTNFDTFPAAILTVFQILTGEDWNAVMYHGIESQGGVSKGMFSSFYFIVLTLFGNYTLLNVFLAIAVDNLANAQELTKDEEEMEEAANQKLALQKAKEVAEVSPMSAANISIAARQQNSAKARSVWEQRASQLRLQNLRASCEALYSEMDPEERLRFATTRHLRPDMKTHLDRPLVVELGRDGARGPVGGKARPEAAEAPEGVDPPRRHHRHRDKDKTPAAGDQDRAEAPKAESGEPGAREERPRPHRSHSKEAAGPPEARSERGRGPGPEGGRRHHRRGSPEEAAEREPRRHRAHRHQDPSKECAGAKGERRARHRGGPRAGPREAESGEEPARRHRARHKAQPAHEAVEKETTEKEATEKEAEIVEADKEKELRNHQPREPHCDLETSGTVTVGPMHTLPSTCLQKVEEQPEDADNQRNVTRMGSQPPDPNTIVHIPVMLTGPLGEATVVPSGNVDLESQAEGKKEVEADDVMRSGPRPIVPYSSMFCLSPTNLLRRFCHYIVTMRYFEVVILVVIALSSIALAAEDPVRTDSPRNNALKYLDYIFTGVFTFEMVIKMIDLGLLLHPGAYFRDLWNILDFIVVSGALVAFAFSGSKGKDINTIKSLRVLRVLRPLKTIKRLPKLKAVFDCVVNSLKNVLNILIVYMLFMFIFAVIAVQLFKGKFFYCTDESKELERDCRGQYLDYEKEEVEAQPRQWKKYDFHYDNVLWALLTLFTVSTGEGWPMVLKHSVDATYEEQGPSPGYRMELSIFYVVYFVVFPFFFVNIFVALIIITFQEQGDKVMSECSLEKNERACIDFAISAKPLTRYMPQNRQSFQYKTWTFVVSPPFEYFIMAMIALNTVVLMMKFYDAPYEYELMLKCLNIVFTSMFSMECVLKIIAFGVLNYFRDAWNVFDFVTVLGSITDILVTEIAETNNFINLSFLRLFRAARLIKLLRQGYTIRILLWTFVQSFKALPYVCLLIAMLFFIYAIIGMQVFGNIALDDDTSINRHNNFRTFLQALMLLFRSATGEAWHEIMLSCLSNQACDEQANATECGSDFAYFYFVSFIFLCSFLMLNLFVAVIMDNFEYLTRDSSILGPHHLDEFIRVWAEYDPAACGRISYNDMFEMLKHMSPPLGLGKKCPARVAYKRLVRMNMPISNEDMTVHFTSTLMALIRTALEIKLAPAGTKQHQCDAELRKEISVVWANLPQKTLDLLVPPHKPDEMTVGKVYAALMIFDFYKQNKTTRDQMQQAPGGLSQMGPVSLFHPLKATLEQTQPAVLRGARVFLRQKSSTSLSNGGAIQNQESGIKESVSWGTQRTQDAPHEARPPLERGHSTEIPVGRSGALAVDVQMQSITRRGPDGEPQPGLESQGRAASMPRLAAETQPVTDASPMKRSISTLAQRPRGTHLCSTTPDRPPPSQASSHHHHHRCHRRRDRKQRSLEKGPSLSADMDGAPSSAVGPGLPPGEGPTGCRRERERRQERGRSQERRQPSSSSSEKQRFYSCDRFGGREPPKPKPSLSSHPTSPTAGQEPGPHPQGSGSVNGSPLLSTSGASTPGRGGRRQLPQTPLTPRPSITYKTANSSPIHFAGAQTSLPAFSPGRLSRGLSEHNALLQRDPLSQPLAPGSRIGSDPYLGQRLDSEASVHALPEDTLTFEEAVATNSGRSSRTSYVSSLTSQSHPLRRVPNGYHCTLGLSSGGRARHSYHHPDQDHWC

Biological target: neuronal voltage-sensitive Ca^2+ channels (Homo sapiens, UniProt Q00975)

Ω-conotoxin GVIA
affinity (Kd) for its high-affinity targets: sub-picomolar | time for 50% of the peptide to dissociate: more than 7 hours
